Experiments:
[1] = test system: Fusarium blight fungus (Fusarium graminearum); assay: Fusarium blight anti-germ test (Test Example D); details: 50 ppm/well; Czapek-dox broth; 25°C for 3 days; absorbance 600 nm
[2] = test system: Magnaporthe grisea; assay: Rice blast disease pot test (Test Example A); details: 250 ppm sprayed, 2.5 ml/pot; rice variety Sachikaze; degree of disease development 6 to 8 days after inoculation
[3] = test system: Gray mold fungus (Botrytis cinerea); assay: Gray mold anti-germ test (Test Example C); details: 50 ppm/well; Czapek-dox broth; 25°C for 3 days; absorbance 600 nm
[4] = test system: Speckled leaf blotch fungus (Septoria tritici); assay: Speckled leaf blotch anti-germ test (Test Example F); details: 50 ppm/well; Czapek-dox broth; 25°C for 3 days; absorbance 600 nm
[5] = test system: Anthracnose fungus (Glomerella cingulata); assay: Anthracnose anti-germ test (Test Example E); details: 50 ppm/well; Czapek-dox broth; 25°C for 3 days; absorbance 600 nm
[6] = test system: Botrytis cinerea; assay: Tomato gray mold pot test (Test Example B); details: 250 ppm sprayed, 2.5 ml/pot; tomato variety Oogata Fukuju; degree of disease development 2 to 3 days after inoculation

SMILES	Fusarium blight anti-germ test (rate of inhibition) [1]	Rice blast disease pot test (control value) [2]	Gray mold anti-germ test (rate of inhibition) [3]	Speckled leaf blotch anti-germ test (rate of inhibition) [4]	Anthracnose anti-germ test (rate of inhibition) [5]	Tomato gray mold pot test (control value) [6]
Cc1cccc2c1ncn2C1=NC(C)(C)Oc2ccccc21	H (H represents a control value or rate of inhibition of larger than 50%)	H (H represents a control value or rate of inhibition of larger than 50%)	H (H represents a control value or rate of inhibition of larger than 50%)	H (H represents a control value or rate of inhibition of larger than 50%)	H (H represents a control value or rate of inhibition of larger than 50%)	H (H represents a control value or rate of inhibition of larger than 50%)
Cc1ccc2c(ncn2C2=NC(C)(C)Oc3cc(F)ccc32)c1C	H (H represents a control value or rate of inhibition of larger than 50%)	H (H represents a control value or rate of inhibition of larger than 50%)	H (H represents a control value or rate of inhibition of larger than 50%)	L (L represents a control value or rate of inhibition of 50% or less)	H (H represents a control value or rate of inhibition of larger than 50%)	H (H represents a control value or rate of inhibition of larger than 50%)
Cc1ccc2c(c1)OC(C)(C)N=C2n1cnc2ccccc21	L (L represents a control value or rate of inhibition of 50% or less)	L (L represents a control value or rate of inhibition of 50% or less)	L (L represents a control value or rate of inhibition of 50% or less)	L (L represents a control value or rate of inhibition of 50% or less)	L (L represents a control value or rate of inhibition of 50% or less)	L (L represents a control value or rate of inhibition of 50% or less)
CSCC1(C)N=C(n2cnc3c(C)c(C)ccc32)c2ccc(C)cc2O1 (stereo not drawn)	H (H represents a control value or rate of inhibition of larger than 50%)	H (H represents a control value or rate of inhibition of larger than 50%)	H (H represents a control value or rate of inhibition of larger than 50%)	H (H represents a control value or rate of inhibition of larger than 50%)	H (H represents a control value or rate of inhibition of larger than 50%)	H (H represents a control value or rate of inhibition of larger than 50%)
Cc1c(Cl)ccc2c1ncn2C1=NC(C)(C)Oc2c(Cl)cccc21	L (L represents a control value or rate of inhibition of 50% or less)	H (H represents a control value or rate of inhibition of larger than 50%)	L (L represents a control value or rate of inhibition of 50% or less)	L (L represents a control value or rate of inhibition of 50% or less)	H (H represents a control value or rate of inhibition of larger than 50%)	H (H represents a control value or rate of inhibition of larger than 50%)
COc1ccc2c(c1)OC(C)(C)N=C2n1cnc2c(C)c(Cl)ccc21	H (H represents a control value or rate of inhibition of larger than 50%)	L (L represents a control value or rate of inhibition of 50% or less)	H (H represents a control value or rate of inhibition of larger than 50%)	L (L represents a control value or rate of inhibition of 50% or less)	H (H represents a control value or rate of inhibition of larger than 50%)	H (H represents a control value or rate of inhibition of larger than 50%)
